Measured values taken from ChEMBL document CHEMBL5375961, “Design, Synthesis, and Biological Evaluation of Trisubstituted Piperazine Derivatives as Noncovalent Severe Acute Respiratory Syndrome Coronavirus 2 Main Protease Inhibitors with Improved Antiviral Activity and Favorable Druggability” (J Med Chem, 2023).

The chains behind the UniProt entries cited, without tags or fusion partners. Where a name states a change or a piece, a line headed by the entry shows the natural chain unless it says otherwise.
UniProt P07711: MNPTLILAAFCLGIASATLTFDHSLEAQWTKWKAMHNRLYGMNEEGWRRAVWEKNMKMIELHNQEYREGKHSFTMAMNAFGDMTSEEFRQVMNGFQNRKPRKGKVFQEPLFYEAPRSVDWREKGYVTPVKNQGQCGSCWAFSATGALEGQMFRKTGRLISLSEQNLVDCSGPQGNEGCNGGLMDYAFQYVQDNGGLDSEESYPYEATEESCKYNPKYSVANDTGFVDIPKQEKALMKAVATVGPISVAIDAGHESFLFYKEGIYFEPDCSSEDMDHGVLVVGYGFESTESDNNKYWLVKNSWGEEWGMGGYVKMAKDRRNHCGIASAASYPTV

Legend:
[1] = molecular target: Procathepsin L (Homo sapiens) (UniProt P07711); assay: Inhibition of human Cathepsin L using Z-Leu-Arg-AMC as substrate upto 50 uM incubated for 60 mins by FRET assay
[2] = molecular target: Cathepsin B (Homo sapiens) (UniProt P07858); assay: Inhibition of human Cathepsin B using Z-Leu-Arg-AMC as substrate upto 50 uM incubated for 60 mins by FRET assay
[3] = molecular target: T1, Cathepsin F (Homo sapiens) (UniProt Q9UBX1); assay: Inhibition of human Cathepsin F using Z-Phe-Arg-AMC as substrate upto 50 uM incubated for 60 mins by FRET assay
T1 sequence (whole entry): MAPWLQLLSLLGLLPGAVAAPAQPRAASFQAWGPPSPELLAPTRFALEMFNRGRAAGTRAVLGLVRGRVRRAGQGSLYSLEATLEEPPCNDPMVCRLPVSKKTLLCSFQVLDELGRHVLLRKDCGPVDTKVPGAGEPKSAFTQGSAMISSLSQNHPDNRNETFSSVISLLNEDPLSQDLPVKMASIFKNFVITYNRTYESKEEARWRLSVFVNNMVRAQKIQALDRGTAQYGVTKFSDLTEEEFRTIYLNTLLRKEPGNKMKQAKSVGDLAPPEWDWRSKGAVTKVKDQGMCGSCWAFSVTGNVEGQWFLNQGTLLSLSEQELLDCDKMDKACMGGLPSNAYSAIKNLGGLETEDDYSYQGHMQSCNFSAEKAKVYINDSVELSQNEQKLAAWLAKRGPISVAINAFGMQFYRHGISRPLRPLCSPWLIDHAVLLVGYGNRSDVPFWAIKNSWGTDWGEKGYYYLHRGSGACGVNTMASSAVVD

[4] = molecular target: T2, Cathepsin K (Homo sapiens) (UniProt P43235); assay: Inhibition of human Cathepsin K using Ac-LR-AFC as substrate upto 50 uM incubated for 60 mins by FRET assay
T2 sequence (whole entry): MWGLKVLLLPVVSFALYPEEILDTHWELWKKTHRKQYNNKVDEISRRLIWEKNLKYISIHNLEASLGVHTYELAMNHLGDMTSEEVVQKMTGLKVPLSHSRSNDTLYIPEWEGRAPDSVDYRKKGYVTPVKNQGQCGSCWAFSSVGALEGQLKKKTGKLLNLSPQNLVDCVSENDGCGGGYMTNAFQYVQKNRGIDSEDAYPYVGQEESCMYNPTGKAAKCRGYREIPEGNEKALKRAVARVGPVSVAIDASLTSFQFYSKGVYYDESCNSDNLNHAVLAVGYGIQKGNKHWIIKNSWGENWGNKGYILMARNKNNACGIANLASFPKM

Measured: inhibition

COc1ccc(NC(=O)[C@@H]2CN(C(=O)c3cnccc3OC)CCN2c2ccc(Cl)c(Cl)c2)cc1
inactive: all assays above

Calls of active or inactive are those of the source.
